PubChem BioAssay AID504761 – Drosophila RNAi Screening Center, 2011
The deposit covers about 22,000 reagents; below is an unselected part of those with a known target gene and a result. Over the whole deposit, 116 (0.52%) were called active. 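Calls depend on retest data that are not deposited; infection was ranked per plate without normalising between plates; the unit of the infection score is not given.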 The raw values are shown without normalisation. Reagents against one gene are numbered here. A plus sign joins genes that one reagent is predicted to hit. Not stated in the record: the amount of reagent, the time to read-out.

Purpose: 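Insect host genes that dengue virus relies on to spread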 (primary screen)
Cells: D.Mel-2 cells from Drosophila
Knock-down reagent: long dsRNA against Drosophila genes
Challenge: infection with dengue virus type 2; dose and infection time not stated
Detection: 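Cells stained for dengue envelope protein and imaged; percent of infected cells per well on duplicate plates, ranked by infection, with stained nuclei counted for cell number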
Reading the numbers: infection score: higher = more virus-infected cells; cell count: higher = more cells in the well
Call rule: 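Low infection ranks in the two replicates (chance level up to 0.065) followed by a retest with a 1.5-fold or larger significant decrease, p below 0.05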
Meaning of the calls: active = confirmed: knock-down lowers infection; inactive = not picked or not confirmed

The opening 5 entries, to show the layout:
predicted target | dsRNA no. | infection score, replicate 1 | infection score, replicate 2 | cell count, replicate 1 | cell count, replicate 2 | outcome
CG33225 | 1 | 0.16 | 0.05 | 6206 | 6010 | inactive
JMJD4 | 1 | 8.07 | 14.9 | 6281 | 6090 | inactive
JMJD4 | 2 | 3.61 | 3.9 | 6738 | 6621 | inactive
CG34235 + CG30058 + CG34312 | 1 | 3.54 | 4.64 | 6554 | 6901 | inactive
CG8839 | 1 | 10 | 31.6 | 5591 | 5749 | inactive

The listing, repeating the preview:
predicted target | dsRNA no. | infection score, replicate 1 | infection score, replicate 2 | cell count, replicate 1 | cell count, replicate 2 | outcome
CG33225 | 1 | 0.16 | 0.05 | 6206 | 6010 | inactive
JMJD4 | 1 | 8.07 | 14.9 | 6281 | 6090 | inactive
JMJD4 | 2 | 3.61 | 3.9 | 6738 | 6621 | inactive
CG34235 + CG30058 + CG34312 | 1 | 3.54 | 4.64 | 6554 | 6901 | inactive
CG8839 | 1 | 10 | 31.6 | 5591 | 5749 | inactive
CG32603 | 1 | 1.84 | 2.35 | 6516 | 6467 | inactive
CG32603 | 2 | 14.5 | 4.52 | 6119 | 6835 | inactive
CG32603 | 3 | 11.5 | 6.73 | 6465 | 6509 | inactive
CG34331 | 1 | 2.44 | 2.01 | 5776 | 5471 | inactive
Alh | 1 | 0.96 | 0.64 | 3525 | 3427 | inactive
Alh | 2 | 4.1 | 13.2 | 6665 | 4769 | inactive
Alh | 3 | 17.6 | 5.04 | 5015 | 5954 | inactive
Alh | 4 | 16.4 | 14.8 | 5837 | 3847 | inactive
CG7208 | 1 | 2.42 | 2.37 | 7096 | 6167 | inactive
CG7208 | 2 | 13.2 | 5.51 | 6274 | 5864 | inactive
CG13018 | 1 | 6.91 | 15.5 | 6351 | 6006 | inactive
CG10000 | 1 | 2.21 | 10.4 | 6297 | 6179 | inactive
CG10000 | 2 | 5.55 | 4.3 | 6381 | 5675 | inactive
CG5823 | 1 | 2.37 | 4.74 | 6467 | 6790 | inactive
dsf | 1 | 2.9 | 8.15 | 6336 | 1631 | inactive
dsf | 2 | 3.77 | 6.49 | 6665 | 6412 | inactive
Rabex-5 | 1 | 17.7 | 18.4 | 5012 | 2725 | inactive
Rabex-5 | 2 | 7.56 | 5.14 | 6215 | 6089 | inactive
gpp | 1 | 10.1 | 9.16 | 5787 | 5810 | inactive
gpp | 2 | 8.07 | 1.88 | 3494 | 6800 | inactive
sub | 1 | 11.9 | 7.6 | 3942 | 1395 | inactive
CG30379 | 1 | 3.06 | 0.33 | 6569 | 6136 | inactive
Nepl21 | 1 | 2.68 | 3.37 | 6260 | 6327 | inactive
Toll-7 | 1 | 0.53 | 1.41 | 5637 | 6514 | inactive
Toll-7 | 2 | 17.6 | 12.7 | 5961 | 1681 | inactive
Sema5c | 1 | 2.62 | 1.79 | 5448 | 6582 | inactive
Sema5c | 2 | 4.74 | 6.49 | 6433 | 5716 | inactive
CG17377 | 1 | 2.15 | 9.73 | 5956 | 6679 | inactive
CG17377 | 2 | 16.5 | 16.5 | 5457 | 5470 | inactive
CG17377 | 3 | 1.62 | 1.11 | 5433 | 5490 | inactive
CG17377 | 4 | 11.2 | 0.49 | 2684 | 411 | inactive
GlyRS | 1 | 3.82 | 8.56 | 6234 | 6119 | inactive
Taf10 | 1 | 4.64 | 19.1 | 6136 | 6106 | inactive
CG3419 (retired record) | 1 | 3.6 | 11.8 | 1748 | 6650 | inactive
CG3419 (retired record) | 2 | 6.78 | 4.54 | 5680 | 6609 | inactive
CG31810 + CG31809 | 1 | 3.28 | 5.27 | 6900 | 6512 | inactive
Or42a | 1 | 5.05 | 15.2 | 6391 | 5621 | inactive
UQCR-14L | 1 | 3.18 | 2.22 | 6533 | 6454 | inactive
UQCR-14L | 2 | 2.32 | 4.74 | 6151 | 6598 | inactive
UQCR-14L | 3 | 1.73 | 2.43 | 6360 | 6326 | inactive
CG31693 | 1 | 3.52 | 5 | 5883 | 5998 | inactive
CG31464 | 1 | 5.3 | 6.57 | 6360 | 6714 | inactive
Argl + CG9515 | 1 | 37.4 | – | 5382 | 435 | inactive
Argl + CG9515 | 2 | 15.4 | 6.8 | 5872 | 6337 | inactive
ChT | 1 | 10.4 | 2.64 | 5996 | 6440 | inactive
Shc | 1 | 1.8 | 1.93 | 6124 | 6125 | inactive
CG17050 (retired record) | 1 | 0.75 | 34.4 | 797 | 4741 | inactive
dbe | 1 | 3.66 | 5.14 | 6168 | 6066 | inactive
Bgb | 1 | 8.85 | – | 2022 | 447 | inactive
Bgb | 2 | 0.62 | 4.74 | 6328 | 6501 | inactive
Nrg | 1 | 8.1 | 2.16 | 6112 | 6375 | inactive
Nrg | 2 | 3.57 | 0.9 | 6676 | 6345 | inactive
Nrg | 3 | 7.55 | 11.1 | 6289 | 6697 | inactive
Oseg5 | 1 | 2.21 | 5.77 | 6321 | 6604 | inactive
Fbp2 | 1 | 14.9 | 14.5 | 6270 | 5680 | inactive
Fbp2 | 2 | 6.4 | – | 2938 | 296 | inactive
srl | 1 | 9.07 | 6.22 | 6407 | 6620 | inactive
srl | 2 | 15.3 | 18 | 5575 | 3725 | inactive
Cp190 | 1 | 28.8 | 22.8 | 4474 | 3145 | inactive
RhoGAP5A | 1 | 5.09 | 3.22 | 5875 | 6903 | inactive
RhoGAP5A | 2 | 3.7 | 2.21 | 6155 | 6160 | inactive
NimC4 | 1 | 15.5 | – | 4742 | 583 | inactive
Synd | 1 | 1.66 | 5.26 | 6693 | 6439 | inactive
CG12594 | 1 | 2.24 | 16.1 | 6618 | 6187 | inactive
CG12594 | 2 | 4.83 | 4.96 | 6422 | 5869 | inactive
eca | 1 | 1.21 | 1.45 | 5722 | 415 | inactive
CG5721 | 1 | 5.07 | 5.01 | 6336 | 6413 | inactive
CG5555 | 1 | 5.12 | 1.76 | 6391 | 6356 | inactive
HP1b | 1 | 11.7 | 28.7 | 5936 | 5815 | inactive
HP1b | 2 | 15.2 | 16.6 | 6539 | 6651 | inactive
